Target: Replicase polyprotein 1ab (Severe acute respiratory syndrome coronavirus 2) (UniProt P0DTD1)
Test: Inhibition of SARS-CoV-2 3CL-Pro proteolytic cleavage of a dual-labeled substrate by FRET at 1mM DTT.
Type: functional
Parameters: assay stage

How did the IC50 relative turn out when CN1CCN(C2=C(Cl)C(=O)N(c3ccc(Cl)c(Cl)c3)C2=O)CC1 was run?
The IC50 relative was 1560 nM.

Source: ChEMBL document CHEMBL5303710, “ECBD screening data for assay EOS300044” (2022)
